Results on 2 compounds are retold here after patent US5552382A (priority 1994, dated 1996).

This data set relates to IIIB strain of HIV. The format is cell-based. How it is done:
The following test procedure was employed.
In a classical virology assay aimed at testing the antiviral activity of a drug, the virus is added in the presence of a drug to target cells for the determined period of inoculation time, e.g., 1 hour, and then nonadsorbed virus is washed away and inoculated cells are exposed again to a fresh drug. After several days, a period corresponding to the replication cycle of the virus, the dose-effect of the drug is tested by measuring the quantity of newly-synthesized virus in the culture supernates of inoculated cells. But this strategy is not truly representative of the in vivo situation. It is clear that in a real-life situation the virus is not "flushed" from a human body prior to drug administration. […] In the present assay, virus, drug and cells were left without washing in the culture until tested for virus production 3 days later. This period of time presents one full cycle of HIV replication, Dimitrov et al., J. Virol. 67:2182-90, 1993. […]
p24 ELISA. Reduction of productive infection was evaluated by a commercial ELISA kit for viral core gag p24 product according to the manufacturer's instructions (Coulter, Hialeah, Fla.) as follows. […] The amount of captured p24 was measured by comparing the optical density (450 nm) of peroxidase substrate with supplied standards containing known amounts of p24. […]

`Cc1cc2c(C(C)C)c(O)c(O)c(C=O)c2c(O)c1-c1c(C)cc2c(C(C)C)c(O)c(O)c(C=O)c2c1O` [Gossypol, gossypol]: the “TI (therapeutic index), ratio between CC100 and IC100” value came to 1.

Take nonoxynol-9: the “TI (therapeutic index), ratio between CC100 and IC100” value stood at 1.
